Pooled drug test results. Numbers come from NIAID ChemDB, via PubChem.

All rows: growth or infection tests; species: HIV-1; read by: cytopathic effect; endpoint: EC50

ECn is the concentration giving n% inhibition of infection, replication or growth. Rows are shuffled and stem from different studies. An empty or dashed field is not shown.

O=C1CSC(c2c(F)cccc2Cl)N1c1cccc([N+](=O)[O-])c1 ; strain: IIIB ; cells: MT-4 ; value: 1.33 µM
C#CCn1cc(Br)c(=O)[nH]c1=O ; strain: IIIB ; cells: MT-4 ; value: >100 µg/mL
Cc1cc(C)c(CS(=O)c2cccc[n+]2[O-])c(C)c1 ; strain: IIIB ; cells: CEM ; value: 2.4 µg/mL
Cc1cc(C)cc(N2C(=O)CSC2c2c(F)cccc2F)c1 ; strain: IIIB ; cells: MT-4 ; value: 0.24 µM
C=C1CN(S(=O)(=O)c2ccc(C)cc2)CCCN(Cc2ccccc2)CCCN(S(=O)(=O)c2ccc(C)cc2)C1 ; strain: RF ; cells: MT-4 ; value: 1.5 µM
C#CCn1cc(F)c(=O)[nH]c1=O ; strain: IIIB ; cells: MT-4 ; value: >100 µg/mL
COP(=O)(c1cc(C)cc(CCC#N)c1)c1c(C(N)=O)[nH]c2ccc(Cl)c(F)c12 ; strain: IIIB ; mutations: K103R/V179D/P225H ; cells: MT-4 ; value: 0.01 µM
C#CCn1cc(C)c(=O)[nH]c1=O ; strain: IIIB ; cells: MT-4 ; value: >100 µg/mL
Cc1ccc(C)c(CSc2c(Cl)ccc[n+]2[O-])c1 ; strain: RF ; cells: CEM ; value: 0.16 µg/mL
Nc1ncnc2c1ncn2[C@H]1C=C[C@@H](OCP(=O)(O)O)O1 ; strain: WT ; cells: MT-2 ; value: 2.1 µM
CC(=O)OCCOCn1cc(Cn2cc(C)c(=O)[nH]c2=O)nn1 ; strain: IIIB ; cells: MT-4 ; value: >100 µg/mL
O=C1CSC(c2c(Cl)cccc2Cl)N1c1cccc(Br)c1 ; strain: IIIB ; cells: MT-4 ; value: 0.62 µM
Cc1ccc(C)c(C(Cl)S(=O)(=O)c2cc(C)cc[n+]2[O-])c1 ; strain: IIIB ; cells: CEM ; value: 0.48 µg/mL
O=c1[nH]c(=O)n(Cc2cn(COCCO)nn2)cc1Br ; strain: IIIB ; cells: MT-4 ; value: >100 µg/mL
Cc1cc(C)cc(N2C(=O)CSC2c2c(Cl)cccc2Cl)c1 ; strain: IIIB ; cells: MT-4 ; value: 0.19 µM
Cc1ccc(C)c(C(C)S(=O)(=O)c2c(C)ccc[n+]2[O-])c1 ; strain: MN ; cells: CEM ; value: 1.4 µg/mL

For reference, 2 entries again:

SMILES,strain,mutations,cells,value
Cc1ccc(C)c(CSc2c(Cl)ccc[n+]2[O-])c1,RF,,CEM,0.16 µg/mL
O=C1CSC(c2c(F)cccc2Cl)N1c1cccc([N+](=O)[O-])c1,IIIB,,MT-4,1.33 µM